# Data taken from PubChem BioAssay AID2170 (The Scripps Research Institute Molecular Screening Center, 2009).
# The entries are a selection whose mix differs from that of the whole data set. The source made the active and inactive calls.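 How the source made its calls: active means mean inhibition over replicate wells above the hit cutoff set for the earlier primary screen (cut at about 29% in these data); inactive means the rest.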
# Test system: M18 aspartyl aminopeptidase (Plasmodium falciparum 3D7)
# Assay: inhibition of P. falciparum M18 aminopeptidase – biochemical, QFRET, recombinant enzyme, triplicate, confirmation (AID 2170);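 further: 0% = median of test compound wells and 100% = 2 mM ZnCl2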
# Conditions: recombinant PfM18AAP, H-Glu-NHMec fluorogenic cleavage; at 7.35 µM; stronger effect = higher value
# Procedure, shortened: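 Test system: recombinant P. falciparum M18 aspartyl aminopeptidase; incubation: Enzyme–compound pre-incubation 30 min, substrate reaction 90 min, both 25 °C; detection: fluorescence, excitation 340 nm, emission 450 nm, read at 0 and 90 min; evaluation: percent inhibition from 0–90 min fluorescence gain, scaled between controls; benchmarks: ZnCl2 inhibitor control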
row,SMILES,inhibition
1,Cc1nc2ccc3ccccc3c2o1.O=[N+]([O-])c1cc([N+](=O)[O-])c(O)c([N+](=O)[O-])c1,inactive: 11.7%
2,CP(=S)(Nn1cnnc1)Oc1ccccc1 (configuration not stated),active: 43%
